Taken from: PubChem BioAssay AID1259414 (Drosophila RNAi Screening Center, 2018)

- Purpose: 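Fly genes that alter Wolbachia amount inside host cells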 (primary screen)
- Cell system: Drosophila JW18 cells infected with Wolbachia
- Reagents: long dsRNA against Drosophila genes, 0.25 µg dsRNA per well of a 384-well plate
- Duration: 5 days
- Challenge: cells persistently infected with Wolbachia before knock-down; no added drug
- Detection: 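Automated imaging of bacterial rRNA staining divided by host cell count, reported as plate-normalised robust z-score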
- Direction: Wolbachia per cell robust z: higher = more Wolbachia per host cell than the plate typical
- Active means: 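Active if absolute robust z reaches 1.5 in two or more of three replicates, leaving out multi- or no-target dsRNAs, genes unexpressed in JW18 and A1 wells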
The screen tested about 24,000 reagents; below is a random part of those that have a named target and a result. Over the whole deposit, about 1,210 (5%) got an active call. 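Inactive calls also include excluded dsRNAs with several or no targets, genes unexpressed in JW18, and well A1, regardless of score.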 Entries without a mark were called inactive. Reagents against one gene are numbered here. Names joined by + are all predicted targets of the reagent. No sequences are given here.

mRpS16 (mitochondrial ribosomal protein S16) scored Wolbachia per cell robust z, rep 1 = 0.351; Wolbachia per cell robust z, rep 2 = 0.589; Wolbachia per cell robust z, rep 3 = 0.524.
Against CG13930 #1, the values are Wolbachia per cell robust z, rep 1 = -4.44; Wolbachia per cell robust z, rep 2 = -0.836; Wolbachia per cell robust z, rep 3 = -1.47.
Silencing of CG13930 #2 came out at: Wolbachia per cell robust z, rep 1 = 0.285; Wolbachia per cell robust z, rep 2 = -1.48; Wolbachia per cell robust z, rep 3 = 1.2.
CG7907 #1 gave Wolbachia per cell robust z, rep 1 = 0.293; Wolbachia per cell robust z, rep 2 = 0.0593; Wolbachia per cell robust z, rep 3 = 0.499.
Silencing of CG7907 #2 gave: Wolbachia per cell robust z, rep 1 = 0.65; Wolbachia per cell robust z, rep 2 = 0.969; Wolbachia per cell robust z, rep 3 = -1.01.
CG7691 showed Wolbachia per cell robust z, rep 1 = -1.29; Wolbachia per cell robust z, rep 2 = -4.83; Wolbachia per cell robust z, rep 3 = -0.322.
Depletion of CG9485 came out at: Wolbachia per cell robust z, rep 1 = 0.887; Wolbachia per cell robust z, rep 2 = 1.2; Wolbachia per cell robust z, rep 3 = -0.00365.
Silencing of CG31743 + CG34313 #1 came out at: Wolbachia per cell robust z, rep 1 = -0.581; Wolbachia per cell robust z, rep 2 = -0.564; Wolbachia per cell robust z, rep 3 = 0.264.
Against CG31743 + CG34313 #2, the values are Wolbachia per cell robust z, rep 1 = -0.517; Wolbachia per cell robust z, rep 2 = 0.8; Wolbachia per cell robust z, rep 3 = -0.175.
After knock-down of TfIIA-S-2, the screen gave Wolbachia per cell robust z, rep 1 = -0.199; Wolbachia per cell robust z, rep 2 = -0.58; Wolbachia per cell robust z, rep 3 = -1.31.
After knock-down of CG13577 the results were Wolbachia per cell robust z, rep 1 = -0.0895; Wolbachia per cell robust z, rep 2 = -7.12; Wolbachia per cell robust z, rep 3 = -0.055.
asRNA:CR33945 (antisense RNA:CR33945) #1 gave Wolbachia per cell robust z, rep 1 = -0.661; Wolbachia per cell robust z, rep 2 = 0.157; Wolbachia per cell robust z, rep 3 = -0.377.
For asRNA:CR33945 (antisense RNA:CR33945) #2 the deposit lists Wolbachia per cell robust z, rep 1 = 1.08; Wolbachia per cell robust z, rep 2 = -0.313; Wolbachia per cell robust z, rep 3 = 0.775.
Silencing of miple2 (midkine and pleiotrophin 2) gave: Wolbachia per cell robust z, rep 1 = 0.657; Wolbachia per cell robust z, rep 2 = 0.581; Wolbachia per cell robust z, rep 3 = -0.442.
With knock-down of Pak3 #1, the screen gave Wolbachia per cell robust z, rep 1 = 3.37 (active); Wolbachia per cell robust z, rep 2 = 1.5; Wolbachia per cell robust z, rep 3 = 3.52.
Against Pak3 #2 the deposit lists Wolbachia per cell robust z, rep 1 = 0.849 (active); Wolbachia per cell robust z, rep 2 = 1.98; Wolbachia per cell robust z, rep 3 = 4.97.
After knock-down of Not3 (CCR4-NOT transcription complex subunit 3) #1, the record shows Wolbachia per cell robust z, rep 1 = 0.676; Wolbachia per cell robust z, rep 2 = 0.272; Wolbachia per cell robust z, rep 3 = 1.15.
For Not3 (CCR4-NOT transcription complex subunit 3) #2, the values are Wolbachia per cell robust z, rep 1 = 1.42; Wolbachia per cell robust z, rep 2 = 0.0357; Wolbachia per cell robust z, rep 3 = 0.783.
Obp19c (Odorant-binding protein 19c) scored Wolbachia per cell robust z, rep 1 = -1.83; Wolbachia per cell robust z, rep 2 = -2.22; Wolbachia per cell robust z, rep 3 = -2.13.
After knock-down of CG11333, the screen gave Wolbachia per cell robust z, rep 1 = -0.807; Wolbachia per cell robust z, rep 2 = -4.49; Wolbachia per cell robust z, rep 3 = -0.371.
For CG13962 #1 the deposit lists Wolbachia per cell robust z, rep 1 = -0.458; Wolbachia per cell robust z, rep 2 = -0.188; Wolbachia per cell robust z, rep 3 = -0.625.
Silencing of CG13962 #2 came out at: Wolbachia per cell robust z, rep 1 = -0.224; Wolbachia per cell robust z, rep 2 = -1.04; Wolbachia per cell robust z, rep 3 = -5.73.
Mlp60A (Muscle LIM protein at 60A) #1 scored Wolbachia per cell robust z, rep 1 = 1.05; Wolbachia per cell robust z, rep 2 = 0.0484; Wolbachia per cell robust z, rep 3 = 1.05.
Mlp60A (Muscle LIM protein at 60A) #2 showed Wolbachia per cell robust z, rep 1 = 0.581; Wolbachia per cell robust z, rep 2 = 0.55; Wolbachia per cell robust z, rep 3 = -0.513.
After knock-down of Mlp60A (Muscle LIM protein at 60A) #3, the record shows Wolbachia per cell robust z, rep 1 = -0.419; Wolbachia per cell robust z, rep 2 = 0.389; Wolbachia per cell robust z, rep 3 = 0.408.
